Data source: PubChem BioAssay AID504761 (Drosophila RNAi Screening Center, 2011)

- Aim: 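Insect host genes that dengue virus relies on to spread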 (primary screen)
- System: D.Mel-2 cells from Drosophila
- Reagent: long dsRNA against Drosophila genes
- Challenge: infection with dengue virus type 2; dose and infection time not stated
- Measured: 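Cells stained for dengue envelope protein and imaged; percent of infected cells per well on duplicate plates, ranked by infection, with stained nuclei counted for cell number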
- Reading the numbers: infection score: higher = more virus-infected cells; cell count: higher = more cells in the well
- Rule for the call: 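Very low infection ranking in both replicate wells (chance probability at most 0.065), then a retest showing infection dropped 1.5-fold or more at p below 0.05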
- Calls: active = confirmed: knock-down lowers infection; inactive = not picked or not confirmed
The deposit covers about 22,000 reagents; shown is a random part of those that have a named target and a result. Over the whole deposit, 116 (0.52%) are marked active. 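Calls depend on retest data that are not deposited; infection was ranked per plate without normalising between plates; the unit of the infection score is not given.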 Raw values are not corrected between plates. Names joined by + are all predicted targets of the reagent. Further read-outs or replicates are left out here. The record does not give: the amount of reagent, the time to read-out.

predicted target	amplicon	infection score, replicate 1	infection score, replicate 2	cell count, replicate 1	activity call
CG12502	DRSC23247	1.07	13.4	6926	inactive
Liprin-beta	DRSC09795	1.67	1.35	6350	inactive
Liprin-beta	DRSC23339	1.12	8.21	6849	inactive
Liprin-beta	DRSC28695	1.95		872	inactive
CG5103	DRSC10481	8.71	4.71	6644	inactive
CG18649	DRSC10334	1.92	1.61	6141	inactive
CG8993	DRSC08616	1.05	3.02	6928	inactive
CG8993	DRSC27318	9	3.66	6343	inactive
Mocs2A + Mocs2B	DRSC13697	16.9	2.9	2012	inactive
Mocs2A + Mocs2B	DRSC14219	5.46	2.93	6448	inactive
nau	DRSC17011	25.4	9.69	4684	inactive
CG13108	DRSC02206	4.68	2.64	5661	inactive
CG14535	DRSC02393	3.01	6.13	6151	inactive
CG32099	DRSC21352	0.99		5663	inactive
CG33111	DRSC14208	5.65	4.74	5309	inactive
CG33111	DRSC14444	6.11	3.44	5419	inactive
CG14717	DRSC14940	2.06	3.16	6759	inactive
CG31917 + Tfb5	DRSC02362	3.6	4.91	6281	inactive
CG31917 + Tfb5	DRSC02363	0.72	2.35	5954	inactive
Nmdar1	DRSC12071	5.65	7.8	6496	inactive
Nmdar1	DRSC12356	16	3.07	5658	inactive
Nmdar1	DRSC24657	2.41	8.68	5685	inactive
CG7963	DRSC16355	2.99	6.45	6585	inactive

Already shown: 3 of the entries above.
predicted target	amplicon	infection score, replicate 1	infection score, replicate 2	cell count, replicate 1	activity call
Mocs2A + Mocs2B	DRSC13697	16.9	2.9	2012	inactive
Mocs2A + Mocs2B	DRSC14219	5.46	2.93	6448	inactive
nau	DRSC17011	25.4	9.69	4684	inactive
